A mixed list of measured activities; the numbers were collected in NIAID ChemDB.

Common to all: target-level tests; agent: Herpes simplex virus 1; protein: DNA polymerase

Inhibition is in % at the dose shown (toxicity tests: loss of growth or viability).

structure,endpoint,tested at,strain or isolate,value
Nc1nc2c(ncn2[C@@H]2C[C@H](COP(=O)(O)OP(=O)(O)OP(=O)(O)O)[C@H]2CO)c(=O)[nH]1,Ki,-,KOS,0.004 µM
O=c1[nH]c(=O)n([C@@H]2O[C@H](CO)[C@@H](O)[C@@H]2F)cc1I,Ki,-,-,0.68 µM
Nc1nc2c(ncn2[C@@H]2O[C@H](COP(=O)(O)O)[C@@H](O)[C@H]2O)c(=O)[nH]1,inhibition,2000 µM,-,47.9%
O=C(NCc1ccc(Cl)cc1)c1cn(N2CCOCC2)c2ccc(CC3CCOCC3)cc2c1=O,IC50,-,-,0.17 µM
CCCCCC[C@@H]([C@H](C)O)n1cnc2c(N)ncnc21,IC50,-,-,>50 µM
NC1=NC2C(C=CN2CC(CO)CCOP(=O)(O)OP(=O)(O)OP(=O)(O)O)C(=O)N1,Ki,-,-,2.8 µM
O=C(NCc1ccc(Cl)cc1)c1cn(N2CCCC2)c2ccc(CN3CCOCC3)cc2c1=O,IC50,-,-,1.3 µM
Nc1nc2c(ncn2COCCOP(=O)(O)OP(=O)(O)OP(=O)(O)O)c(=O)[nH]1,Ki,-,-,0.003 µM
Nc1nc(N)c2nnn([C@@H]3O[C@H](COP(=O)(O)O)[C@@H](O)[C@H]3O)c2n1,IC50,-,-,<2000 µM
O=C(NCc1ccc(Cl)cc1)c1cn(N2CCCCC2)c2ccc(CN3CCOCC3)cc2c1=O,IC50,-,-,0.44 µM
Cn1cc(C(=O)NCc2ccc(Cl)cc2)c(=O)c2cc(/C=C\CO)cc(F)c21,IC50,-,-,1 µM
O=C(NCc1ccc(Cl)cc1)c1cn(N2CCOCC2)c2ccc(CN3CCOCC3)cc2c1=O,IC50,-,-,0.31 µM
NC(=O)c1ncn([C@@H]2O[C@H](COP(=O)(O)O)[C@@H](O)[C@H]2O)n1,inhibition,2000 µM,-,91.2%
Nc1nc2c(ncn2CCC(CO)COP(=O)(O)OP(=O)(O)OP(=O)(O)O)c(=O)[nH]1,Ki,-,-,16 µM
O=C(NCc1ccc(Cl)cc1)c1c[nH]c2c(F)cccc2c1=O,IC50,-,-,2.9 µM
Nc1nc2c(ncn2[C@@H]2O[C@H](COP(=O)(O)OP(=O)(O)O)[C@@H](O)[C@H]2O)c(=O)[nH]1,IC50,-,-,<2000 µM
O=C(NCc1ccc(Cl)cc1)c1n[nH]c2ccccc2c1=O,IC50,-,-,20.8 µM

ICn is the concentration giving n% inhibition. Lines come from different laboratories, so protocols vary. Blank or dashed fields: not listed here.